These results are taken from publication PMC7868322, “Rational Design of A Novel Small-Molecule HIV-1 Inactivator Targeting Both gp120 and gp41 of HIV-1” (Frontiers in Pharmacology, 2021).

This data set has as its system CEMx174 5.25 M7 cells. Put plainly: Cytotoxicity (CCK-8). In kind it is cell-based. Conditions: 48 h, read-out: CC50, CEMx174 5.25 M7 cell. How it is done: Cell viability was detected following the instructions in the protocol provided in the cell counting kit-8 (CCK-8; Dojindo Molecular Technologies, Gaithersburg, MD, USA) as previously described ([Yang et al., 2018]). Briefly, MT-2 cells and CEMx174 517 5.25 M7 cells (3 × 10^4/well) were incubated with compounds at different concentrations at 37°C for 48 h. Then, the supernatant was discarded, and CCK8 diluted 10 times with fresh medium was added (200 μL/well). After 2–6 h of incubation at 37°C, the absorbance at 450 nm was measured using a microplate reader (Tecan, Männedorf, Switzerland).

As a reminder, the CC50 is the concentration at which the toxic effect on the cells reaches its halfway point. Regarding Maraviroc [reference compound], the CC50 was greater than 50 µM.
